Molecular target: 6×His tag-labeled ubiquitin (UniProt P0CG48 1-76)
Conditions: both partners purified

B1: LotA_(1-542) (domain or fragment)
chain: MAKTIKATGDGACLFNAVSIGLSVEILSGRLDSQLDTPGYQALLDEFAKHHPQFNPKSWKTLKEWLAYYNDTRDIELILAPVLFNLNQKYQDHLDEEILNELTNLVWKNKANIENGQAWFQLQNTGDLGEALFPKLENLDLKKDRAPLLDKLREILKDYKLELTRENVKQFLTEKAKELLSALKKKISSDPHAFQRGYSCDELKGMTDALAISLVENREEDITDNRIKIRLENQEEHWNVLCNEEDSERFLDSTPSRLKMTSLEAYRGDKQVSAPTSEQLDLIEEPGVFLRERTIDNPGLGNCAFYAFAIGLVNIIQEEAKYNRRTMFDRWVGLDRSISGQYDEILKLNLEDPDKELLDRLQSSLRIVTYQYQIRELRNVCVFRNGNYNRLTGNSNFVNFAALYYGDPLDTDSRFNPFADSVPILIKMANIDRDSVHPGHENDVLVPLFLDLLYGDTTNPADITLETEPKSDSPIITAMNNITQDFFWGTHLDLNYLAEAFEVNLHVLRNNSPIQEFVDIPERHTLTLTNSNNTHWTTQITT
Kd: 3000 nM

Reference: article PMC9486567, “Structural basis for the dual catalytic activity of the Legionella pneumophila ovarian tumor (OTU) domain deubiquitinase LotA” (The Journal of Biological Chemistry, 2022)
